We go through 25 compounds from patent US6881741B2 (ViroChem Pharma Inc., priority 2001, dated 2005).

By UniProt entry, the sequences of proteins in these tests, tags left out. Residues count along the entry.
UniProt P26663, 2420-3010 limits assumed: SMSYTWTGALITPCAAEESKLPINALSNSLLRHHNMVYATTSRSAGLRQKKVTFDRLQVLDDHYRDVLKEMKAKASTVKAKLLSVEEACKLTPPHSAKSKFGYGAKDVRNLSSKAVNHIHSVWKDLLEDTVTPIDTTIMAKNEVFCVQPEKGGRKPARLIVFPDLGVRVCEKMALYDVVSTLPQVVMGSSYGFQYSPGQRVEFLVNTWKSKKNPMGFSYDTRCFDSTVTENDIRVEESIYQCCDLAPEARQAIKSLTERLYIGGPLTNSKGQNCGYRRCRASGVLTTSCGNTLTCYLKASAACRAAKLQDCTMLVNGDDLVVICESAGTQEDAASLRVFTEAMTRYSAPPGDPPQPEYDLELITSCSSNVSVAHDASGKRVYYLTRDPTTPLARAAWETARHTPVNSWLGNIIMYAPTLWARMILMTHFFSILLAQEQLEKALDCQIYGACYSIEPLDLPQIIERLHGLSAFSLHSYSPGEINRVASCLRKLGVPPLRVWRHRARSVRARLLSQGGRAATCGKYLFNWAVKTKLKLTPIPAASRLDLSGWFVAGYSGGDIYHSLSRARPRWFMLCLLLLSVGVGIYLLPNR

A word on the IC50: it is the concentration needed to halve the response being measured.

Some results are limits rather than exact numbers.

One experiment concerns the target recombinant HCV NS5B (HCV RNA-dependent RNA polymerase) (Hepatitis C virus genotype 1b, UniProt P26663). As to the kind of experiment: In vitro HCV RdRp Flashplate scintillation proximity assay (STREP-FLASH ASSAY). The class given is biochemical.
Conditions: not given
In general terms: SPA uses beads or plates that emit light when radiolabelled molecules are held near them.
For the compound `CC1CC=C(C(=O)N(c2cc(-c3ccccc3)sc2C(=O)O)C(C)C)CC1` (stereo not shown), the concentration for half-maximal inhibition (IC50) is under 5 µM.

The experiment is the same for the next values; noted with them: read-out: IC50 (polymerase activity); HCV polymerase activity, list of compounds of Example 27.
For `CCCCCC(=O)N(CC)c1cc(-c2ccccc2)sc1C(=O)O`, the IC50 was under 5 µM.

Consider `CC(C(O[Si](C)(C)C(C)(C)C)c1ccccc1)N(C(=O)c1ccc(Cl)cc1Cl)c1cc(-c2ccccc2)sc1C(=O)O` (stereo not shown), for which the IC50 lay within 5 to 20 µM.

Regarding `CC(C)N(C(=O)c1ccc(Cl)cc1Cl)c1cc(Br)sc1C(=O)O`, the half-maximal inhibitory concentration (IC50) was under 5 µM.

As to `CN(C(=O)c1ccccc1)c1cc(-c2ccccc2)sc1C(=O)O`, the IC50 is over 20 µM.

Take `CC(CO)N(C(=O)c1ccc(Cl)cc1Cl)c1cc(-c2ccccc2)sc1C(=O)O` (stereo not shown): the IC50 is under 5 µM.

For the compound `CC1CCC(C(=O)N(CC2CCN(C(=O)OCc3ccccc3)CC2)c2cc(-c3ccccc3)sc2C(=O)O)CC1` (stereo not shown), the IC50 is under 5 µM.

The experiment is the same for the next values; noted with them: related polymerase activity (Example 27 list).
As to `CN(C(=O)c1ccc(C(F)(F)F)cc1F)c1cc(-c2ccccc2)sc1C(=O)O`, the IC50 was in the range of 5 to 20 µM.

As for `Cc1cc(S(=O)(=O)Nc2cc(C(C)(C)C)sc2C(=O)O)c(C)cc1Cl`, the IC50 lay within 5 to 20 µM.

For the compound `Cc1ccccc1S(=O)(=O)Nc1cc(-c2ccc(C#N)s2)sc1C(=O)O`, the IC50 is under 5 µM.

`Cc1ccc(S(=O)(=O)Nc2cc(-c3ccc(C(N)=O)cc3)sc2C(=O)O)c(C)c1`: the IC50 is 5 to 20 µM.

With `Cc1ccccc1S(=O)(=O)Nc1cc(-c2ccc(N=[N+]=[N-])cc2)sc1C(=O)O`, the IC50 is under 5 µM.

With `CC(=O)c1ccc(-c2cc(N(C)C(=O)c3ccc(C)cc3)c(C(=O)O)s2)s1`, the IC50 is under 5 µM.

For the compound `Cc1cc(S(=O)(=O)Nc2cc(-c3cc(C(F)(F)F)cc(C(F)(F)F)c3)sc2C(=O)O)c(C)cc1Cl`, the IC50 was over 20 µM.

Turning to `CC(=O)c1ccc(-c2cc(NS(=O)(=O)c3c(C)cccc3C)c(C(=O)O)s2)s1`, the IC50 is under 5 µM.

Regarding `CN(C(=O)c1c(F)cc(F)cc1F)c1cc(-c2ccccc2)sc1C(=O)O`, the IC50 lay within 5 to 20 µM.

In the case of `CCOc1ccc(-c2cc(NS(=O)(=O)c3ccccc3C)c(C(=O)O)s2)cc1`, the IC50 was under 5 µM.

For the compound `Cc1cc(S(=O)(=O)Nc2cc(-c3ccsc3)sc2C(=O)O)c(C)cc1Cl`, the IC50 was under 5 µM.

As to `Cc1ccc2c(c1)C(=O)N=C2N(c1cc(-c2ccccc2)sc1C(=O)O)C(C)C`, the IC50 was in the range of 5 to 20 µM.

As to `Cc1ccc(-c2cc(N(C(=O)c3ccc(Cl)cc3Cl)C(C)C)c(C(=O)O)s2)s1`, the IC50 is under 5 µM.

As for `Cc1ccc(S(=O)(=O)Nc2cc(-c3cc4ccccc4o3)sc2C(=O)O)c(C)c1`, the IC50 is under 5 µM.

Turning to `Cc1cc(S(=O)(=O)Nc2c(C(=O)O)sc3c2CSc2ccc(Cl)cc2-3)c(C)cc1Cl`, the IC50 was 5 to 20 µM.

`Cc1ccccc1S(=O)(=O)Nc1cc(C#Cc2ccccc2)sc1C(=O)O`: the IC50 was under 5 µM.

Turning to `Cc1ccccc1S(=O)(=O)Nc1cc(-c2ccc(F)c(Cl)c2)sc1C(=O)O` [Compound 91, 5-(3-CHLORO-4-FLUORO-PHENYL)-3-(TOLUENE-2-SULFONYLAMINO)-THIOPHENE-2-CARBOXYLIC ACID], the IC50 is under 5 µM.

Take `CC(=O)c1ccc(-c2cc(NS(=O)(=O)c3ccc(C)cc3C)c(C(=O)O)s2)s1`: the IC50 is under 5 µM.
